Where “and” joins values, the source holds several entries; their conditions need not be identical. Equal values may be shown once.

In assay [1] the test system is A/Cambodia/NPH230776/2023.
For assay [2], the system named is A/Cambodia/KSH230332/2023.
The test system of assay [3] is A/bald eagle/FL/2022 (H5N1).
The test system of assay [4] is A/Cambodia/NPH230032/2023.
Assay [5] has as its system A/Illinois/08/2018 (H1N1)pdm09.
Assay [6] relates to A/New Jersey/24/2017 (H3N2).
In assay [7] the test system is Clade 2.3.4.4b viruses, n = 7.
Assay [8] has as its system Clade 2.3.2.1c viruses, n = 7.
Assay [9] relates to A/Pennsylvania/242/2017 (H3N2), PB2-S342R.
For assay [10], the system named is A/Illinois/08/2018 (H1N1)pdm09, PA-I38T.
In assay [11] the test system is A/Wisconsin/53/2009 (H1N1)pdm09.
Assay [12] concerns the target NA activity of A/Illinois/45/2019 (H1N1)pdm09 (Influenza A virus (H1N1)pdm09, UniProt A0A0X9QTS2).
For assay [13], the target named is NA activity of A/Alabama/03/2020 (H1N1)pdm09, NA-H275Y (Influenza A virus, UniProt A0A0X9QTS2, H275Y).
Assay [14] deals with NA activity of B/North Carolina/25/2018 (Vic) (Influenza B virus, UniProt A0A1X9RX69).
Assay [15] concerns the target NA activity of A/Washington/33/2014 (H3N2), NA-E119V (Influenza A virus, UniProt A0A0N7G9M6, E119V).
Assay [16] concerns the target NA activity of A/Cambodia/NPH230776/2023 (Influenza A virus (H5N1), UniProt H9E9A5).
Assay [17] has as its target NA activity of Clade 2.3.4.4b viruses, n = 7 (Influenza A virus, UniProt Q9Q0U7).
Assay [18] has as its target NA activity of A/Cambodia/KSH230332/2023 (Influenza A virus, UniProt A0A1L2FNJ6).
The target in assay [19] is NA activity of A/Colorado/109/2024 (Influenza A virus (H5N1), UniProt Q9Q0U7).
Assay [20] concerns the target NA activity of A/Michigan/90/2024 (Influenza A virus (H5N1), UniProt Q9Q0U7).
The target in assay [21] is NA activity of A/Colorado/139/2024 (Influenza A virus (H5N1), UniProt Q9Q0U7).
In assay [22] the target is NA activity of A/Chile/25945/2023 (Influenza A virus (H5N1), UniProt Q9Q0U7).
Assay [23] addresses NA activity of A/Cambodia/24020179/2024 (Influenza A virus, UniProt A0A1L2FNJ6).
Assay [24] addresses NA activity of A/Cambodia/2311257/2023 (Influenza A virus, UniProt A0A1L2FNJ6).
Assay [25] addresses NA activity of A/California/134/2024 (Influenza A virus, UniProt Q9Q0U7).
Assay [26] concerns the target NA activity of B/Missouri/12/2018 (Vic), NA-D197E (Influenza B virus, UniProt A0A1X9RX69, D197E).
Assay [27] deals with NA activity of A/Cambodia/24020155/2024 (Influenza A virus, UniProt A0A1L2FNJ6).
Assay [28] has as its target NA activity of A/Colorado/137/2024 (Influenza A virus (H5N1), UniProt Q9Q0U7).
For assay [29], the target named is NA activity of A/Texas/37/2024 (Influenza A virus, UniProt Q9Q0U7).

On to `CC(N)C12CC3CC(CC(C3)C1)C2` (centres unmarked), for which the “Mean EC50 ±SD” value in the assay with A/Chile/25945/2023 clone was 0.007 mg/L and 0.0069 ± 0.00052 mg/L; in assay [1] it was 0.01227 ± 0.00779 mg/L; with A/Cambodia/2311257/2023, 0.01297 ± 0.00174 mg/L; in the assay with A/Cambodia/24020179/2024, 0.00725 ± 0.00296 mg/L; in the assay with A/California/134/2024, 0.00428 ± 0.0006 mg/L; in the assay on A/Colorado/109/2024, 0.00422 ± 2e-05 mg/L. Further, the “Mean EC50 ±SD” value was found to be 0.0167 ± 0.00671 mg/L with A/Chile/25945/2023; 0.00984 ± 0.00228 mg/L in [2]; 0.0053 ± 0.00069 mg/L in the assay with A/Colorado/139/2024; 0.00661 ± 0.00057 mg/L in the assay on A/Colorado/137/2024; 0.00657 ± 0.00171 mg/L in the assay with A/Texas/37/2024; 0.00806 ± 0.00154 mg/L in the assay with A/Michigan/90/2024. The “Mean EC50 ±SD” value in [3] worked out at 0.00836 ± 0.00199 mg/L.
For orientation: EC50 means the concentration at which the effect is half-maximal. A low value points to higher potency in that assay. Regarding `O=C(O)[C@H]1C2CCC(CC2)[C@@H]1Nc1nc(-c2c[nH]c3ncc(F)cc23)ncc1F`, the EC50 in [1] was 0.37 nM; in the assay on A/Cambodia/2302009/2023 it was 0.07 nM; in the assay with A/Cambodia/2311257/2023, 0.4 nM; in the assay with A/Cambodia/24020179/2024 it was 0.45 nM; in assay [4] it was 0.06 nM; in the assay on A/California/134/2024, 1.03 nM. For the same compound, the EC50 is 0.93 nM in assay [5]; 0.6 nM in assay [6]; 1.32 nM in the assay on A/Colorado/109/2024; 1.32 nM in [7]; 0.73 nM with A/Chile/25945/2023; 0.4 nM in [8]. Moreover, the EC50 in assay [2] was found to be 0.34 nM; in the assay on A/Cambodia/24020155/2024 it was 0.91 nM; in assay [9], 99.5 nM; in the assay with A/Colorado/139/2024, 1.19 nM; with A/Colorado/137/2024, 1.51 nM; with A/Texas/37/2024 it was 1.66 nM. Moreover, the EC50 was found to be 1.48 nM with A/Michigan/90/2024, 0.49 nM in assay [10] and 0.46 nM in assay [3].
Regarding `NC12CC3CC(CC(C3)C1)C2`, the “Mean EC50 ±SD” value with A/Chile/25945/2023 clone was 0.027 mg/L and 0.02673 ± 0.00324 mg/L; in assay [1] it was 0.04327 ± 0.01046 mg/L; in the assay on A/Cambodia/2311257/2023 it was 0.05973 ± 0.01649 mg/L; in the assay with A/Cambodia/24020179/2024, 0.03473 ± 0.01595 mg/L; in the assay on A/California/134/2024 it was 0.01414 ± 0.00307 mg/L; in the assay with A/Colorado/109/2024, 0.01488 ± 0.00317 mg/L. In addition, the “Mean EC50 ±SD” value came out at 0.09543 ± 0.01169 mg/L with A/Chile/25945/2023; 0.04189 ± 0.01331 mg/L in assay [2]; 0.03236 ± 0.01013 mg/L with A/Cambodia/24020155/2024; 0.01765 ± 0.00439 mg/L in the assay on A/Colorado/139/2024; 0.02521 ± 0.003 mg/L in the assay with A/Colorado/137/2024; 0.02411 ± 0.00594 mg/L with A/Texas/37/2024. Moreover, the “Mean EC50 ±SD” value in assay [11] was 0.02549 ± 0.00498 mg/L; in the assay with A/Michigan/90/2024, 0.0296 ± 0.00452 mg/L; in assay [3] it was 0.03022 ± 0.01333 mg/L.
Broadly, the IC50 is the concentration at which inhibition is half-maximal. In the case of peramivir, the IC50 in [12] was 0.05 nM; in assay [13], 15.8 nM; in [14], 0.55 nM; in [15] it was 0.11 nM; in assay [16], 0.11 nM.
For the compound `O=C1c2c(O)c(=O)ccn2N([C@@H]2c3ccccc3SCc3c2ccc(F)c3F)[C@@H]2COCCN12`, the EC50 is 0.54 nM in assay [1]; 0.62 nM in the assay on A/Cambodia/2311257/2023; 0.4 nM in the assay on A/Cambodia/24020179/2024; 0.56 nM in assay [4]; 0.73 nM in the assay on A/California/134/2024; 0.44 nM in the assay with A/Colorado/109/2024. Moreover, the EC50 amounted to 0.83 nM in assay [7]; 0.96 nM with A/Chile/25945/2023; 0.55 nM in assay [8]; 0.55 nM in assay [2]; 0.54 nM in the assay with A/Cambodia/24020155/2024; 0.7 nM with A/Colorado/139/2024. For the same compound, the EC50 in the assay with A/Colorado/137/2024 was 0.95 nM; in the assay on A/Texas/37/2024, 1.06 nM; in the assay on A/Michigan/90/2024, 0.57 nM; in assay [10], 137 nM; in [3], 0.42 nM.
In the case of oseltamivir carboxylate, the IC50 in [17] is 3.61 nM; in assay [18], 1.03 nM; in assay [19], 3.99 nM; in [12], 0.34 nM; in assay [20], 3.65 nM; in [13], 201 nM. For the same compound, the IC50 amounted to 23.7 nM in assay [14]; 3.51 nM in assay [21]; 47.3 nM in assay [15]; 0.74 nM in assay [16]; 2.98 nM in assay [22]; 0.9 nM in [23]. In addition, the IC50 in assay [24] was determined as 0.99 nM; in assay [25], 3.61 nM; in [26], 165 nM; in assay [27], 0.96 nM; in [28], 3.8 nM; in assay [29] it was 3.16 nM.

The values above are taken from PMC11950254, “Antiviral Susceptibility of Influenza A(H5N1) Clade 2.3.2.1c and 2.3.4.4b Viruses from Humans, 2023–2024” (2025).
